The values below come from PubChem BioAssay AID624416 (The Scripps Research Institute Molecular Screening Center, 2012).

Only a part is listed here, and it is no random draw. Active and inactive are the calls of the source. Cut-off read from the data, not from the text of the source: active = inhibition above about 8.5%; inactive = the rest.

This experiment relates to HIV-1 gp120 / PG9 antibody interaction. The experiment in a line: binders of HIV-1 gp120 antibody PG9, primary screen, biochemical, TR-FRET (AID 624416). The following applies: TR-FRET gp120-PG9 antibody binding; at 6.7 µM; active compounds read high.
As for `C/C(N)=N\P(=O)(OCc1ccccc1)OCc1ccccc1`, the inhibition was inactive: 2.27%.

Consider `Nc1ccc([As](=O)(O)c2ccc([N+](=O)[O-])cc2)cc1`, for which the inhibition was inactive: -1.98%.

As to `C(Cc1nn[nH]n1)Cc1nn[nH]n1`, the inhibition was inactive: -0.64%.

Regarding `c1ccc(-c2nn[nH]n2)c(-c2nn[nH]n2)c1`, the inhibition is inactive: -0.44%.

For the molecule `Cc1ccc(NP(=O)(Oc2cccc(C)c2)Oc2cccc(C)c2)nc1`, the inhibition is inactive: 0.68%.

For `O=C(NC1CCS(=O)(=O)C1)NP(=S)(Oc1ccccc1)Oc1ccccc1` (stereo not drawn), the inhibition is inactive: 0.28%.

Consider `CCNC(=S)/N=C(\N)N[N+](=O)[O-]`, for which the inhibition was inactive: 1.4%.

With `O=P1(N(CCCl)CCCl)OCCC2CCCCN21` (stereo not drawn), the inhibition was inactive: 0.75%.

With `O=C(OC1CN2CCC1CC2)c1ccccc1` (stereo not drawn), the inhibition is inactive: -1.82%.

On to `CCC(=O)N1C2C3N(C(=O)CC)C1C1N(C(=O)CC)C(C(N1C(=O)CC)N3C(=O)CC)N2C(=O)CC`, for which the inhibition was inactive: 0.12%.

In the case of `COC(=O)c1cc2c(s1)N=C(c1ccccc1)N(C)P2(=O)N1CCOCC1` (stereo not drawn), the inhibition is inactive: 1.03%.

For the molecule `CC(=O)NC(SC(=S)N(CC(C)C)CC(C)C)C(Cl)(Cl)Cl` (stereo not drawn), the inhibition was inactive: -0.56%.

Take `Cc1ccc(OP(=O)(Nc2ccccn2)Oc2ccc(C)cc2)cc1`: the inhibition was inactive: -1.03%.

Consider `Cc1ccccc1OP(=O)(Nc1ccccn1)Oc1ccccc1C`, for which the inhibition is inactive: 0.18%.

Turning to `CC(NC(=O)COC(=O)C(O)(c1ccccc1)c1ccccc1)c1ccccc1` (stereo not drawn), the inhibition was inactive: 0.34%.

`CN(C)C(=O)Oc1noc2ccccc12`: the inhibition is inactive: -2.46%.

On to `O=c1c2cc([N+](=O)[O-])ccc2[nH]c2c([N+](=O)[O-])cc([N+](=O)[O-])cc12`, for which the inhibition was inactive: -1.35%.

As to `O=P1(Nc2nc3ccc(Cl)cc3s2)COc2ccccc2O1` (stereo not drawn), the inhibition was inactive: 2.5%.

Consider `CCOc1ccc(C2=NCC(CBr)S2)cc1` (stereo not drawn), for which the inhibition was inactive: -3.5%.

For the molecule `CC(C)(C)C(=O)NC(Sc1ccccc1)C(Cl)(Cl)Cl` (stereo not drawn), the inhibition is inactive: -2.17%.

In the case of `CCc1cc(O)c([N+](=O)[O-])c(C)c1[N+](=O)[O-]`, the inhibition was inactive: -0.9%.

On to `Cc1ccccc1CN(C)C(=O)COC(=O)C(O)(c1ccccc1)c1ccccc1`, for which the inhibition was inactive: 0.52%.

With `C[C@@H]1C=CCP(=O)(Oc2ccccc2)O1` (stereo partly drawn), the inhibition is inactive: 0.34%.

`C[C@H]1OP(=O)(Oc2ccccc2)C[C@@H]2O[C@@H]21` (stereo partly drawn): the inhibition was inactive: 1.83%.

Regarding `N#C/C(=C\c1ccc(N(CCBr)CCBr)cc1)C(N)=O`, the inhibition was inactive: -3.09%.

Regarding `CC(=O)c1ccc(N2CC2c2ccncc2)cc1` (stereo not drawn), the inhibition is inactive: -1.11%.

Turning to `COC(=O)C1(C)COP(=O)(NCc2ccccc2)OC1` (stereo not drawn), the inhibition was inactive: 0.31%.

Turning to `CC(=O)Nc1ccc([As](=O)(O)O)c(O)c1`, the inhibition was inactive: 0.65%.

Consider `CC(=O)Nc1ccc(Oc2c([N+](=O)[O-])cc([N+](=O)[O-])cc2[N+](=O)[O-])cc1`, for which the inhibition was inactive: 0.59%.

Regarding `CN(C(=O)Cc1ccc(Cl)c(Cl)c1)[C@H]1CCCC[C@H]1N1CCCC1`, the inhibition was inactive: -0.09%.

`Cc1ccc(N/C(=N/P(=O)(N2CCOCC2)N2CCOCC2)N2CCOCC2)cc1`: the inhibition is inactive: 0.82%.

On to `NC(=O)c1cc([N+](=O)[O-])cc([N+](=O)[O-])c1N`, for which the inhibition was inactive: 0.25%.

Consider `Clc1ccc(Cl)c(NC2=NCC(CBr)S2)c1` (stereo not drawn), for which the inhibition is inactive: -1.87%.

With `CN1CCCC(OC(=O)C(c2ccccc2)c2ccccc2)C1` (stereo not drawn), the inhibition was inactive: 1.68%.

With `COc1ccccc1OP(=O)(Nc1ccc(C)cn1)Oc1ccccc1OC`, the inhibition was inactive: -0.86%.

Consider `Cc1ccc(OP(=O)(Nc2nccs2)Oc2ccc(C)cc2)cc1`, for which the inhibition was inactive: 0.53%.

For the molecule `Oc1ccccc1CNc1ccccn1`, the inhibition was inactive: 1.9%.

As to `O=C(NC(Sc1ccncn1)C(Cl)(Cl)Cl)c1ccccc1` (stereo not drawn), the inhibition was inactive: -0.09%.

As for `CC(C)CC(=O)NC(Sc1ccc(Cl)cc1)C(Cl)(Cl)Cl` (stereo not drawn), the inhibition is inactive: -0.42%.

For the molecule `Nc1cc(N)c2nonc2c1[N+](=O)[O-]`, the inhibition is inactive: -5.69%.

With `CN(C)P(=O)(N(C)C)n1c(Nc2ccccc2)nnc1-c1ccccc1`, the inhibition is inactive: -1.3%.

With `O=P(Nc1nc2ccc(Cl)cc2s1)(c1ccccc1)c1ccccc1`, the inhibition was inactive: -0.98%.

Consider `O=C(O)c1ccccc1[As](=O)(O)O`, for which the inhibition is inactive: -0.78%.

With `CCCC1OP(N)(=O)OCC1CC` (stereo not drawn), the inhibition is inactive: -0.72%.

As to `CCn1c(=O)n(C2CCN(CC3CCCCCCC3)C[C@H]2CO)c2ccccc21` (stereo partly drawn), the inhibition was inactive: 1.13%.

Turning to `CCOP(=O)(Nc1ccccc1)OCC`, the inhibition is inactive: 0.59%.

With `Cc1cc(SC(NC(=O)c2ccc(F)cc2)C(Cl)(Cl)Cl)ncn1` (stereo not drawn), the inhibition is inactive: -1.96%.

`CN(C(=O)Cc1ccc(Cl)c(Cl)c1)[C@H]1CCCC[C@@H]1N1CCCC1`: the inhibition was inactive: -1.87%.

Turning to `Cc1ccc(NP(=O)(Oc2ccccc2F)Oc2ccccc2F)nc1`, the inhibition is inactive: -3.2%.

On to `Nc1cccc2ccc([As](=O)(O)O)cc12`, for which the inhibition is inactive: -4.19%.

Turning to `CN(C(=O)Cc1ccccc1)C1CC[C@@]2(CCCO2)C[C@@H]1N1CCCC1` (stereo partly drawn), the inhibition was inactive: 0.78%.

For `CCN(N=Nc1nonc1N)c1nonc1N`, the inhibition is inactive: -0.08%.

Consider `O=P1(N(CCCl)CCCl)OCCCS1` (stereo not drawn), for which the inhibition was inactive: 0.93%.

For `O=C(Nc1cc([As](=O)(O)O)ccc1O)c1ccccc1`, the inhibition is inactive: -1.96%.

Regarding `O=[N+]([O-])c1ncn(CCn2ncnc2[N+](=O)[O-])n1`, the inhibition is inactive: 1.59%.

As for `CC(C)(C)C(=O)NC(Sc1ccncn1)C(Cl)(Cl)Cl` (stereo not drawn), the inhibition was inactive: -2.38%.

Take `O=C(O)CNc1ccc([As](=O)(O)O)cc1`: the inhibition is inactive: 0.28%.

For the molecule `O=[N+]([O-])c1cccc(NC2=NCC(CBr)S2)c1` (stereo not drawn), the inhibition is inactive: 0.16%.

As for `COC(=O)C1(C)COP(=O)(Nc2ccccc2)OC1` (stereo not drawn), the inhibition was inactive: 0.8%.

As for `COc1ccc(C2=NCC(CBr)S2)cc1` (stereo not drawn), the inhibition was inactive: 0.29%.

Consider `Cc1ccc(NP(=O)(Oc2ccccc2)Oc2ccccc2)nc1`, for which the inhibition was inactive: -0.51%.

`O=[N+]([O-])c1cc([N+](=O)[O-])c(CCNc2ccccc2)c([N+](=O)[O-])c1`: the inhibition was inactive: 0.06%.

As to `CCc1nc2c(n1)c1c(non1O)c1c2no[n+]1[O-]`, the inhibition is inactive: -2.26%.

On to `CC(=O)N1C2C3N(C(C)=O)C1C1N(C(C)=O)C(C(N1C(C)=O)N3C(C)=O)N2C(C)=O`, for which the inhibition is inactive: 0.57%.

Regarding `O=[N+]([O-])c1cccc2n[nH]nc12`, the inhibition was inactive: 3.33%.

Turning to `CCN(/C(=N/P(=O)(N1CCOCC1)N1CCOCC1)N1CCOCC1)c1ccc(OC)cc1`, the inhibition is inactive: -3.63%.

Take `Nc1ccc([As](=O)(O)c2ccc(N)cc2)cc1`: the inhibition was inactive: 0.9%.

`C[N+]1=C2C=CC=CC=C2SC12C([N+](=O)[O-])=CC([N+](=O)[O-])=C[C-]2[N+](=O)[O-]` (stereo not drawn): the inhibition is inactive: -7.2%.

For `c1cc(-c2nn[nH]n2)ccc1-c1nn[nH]n1`, the inhibition was inactive: -1.44%.

Turning to `CC1CCN(C(=O)Oc2c(Cl)cc(Cl)c3cccnc23)CC1`, the inhibition is inactive: 0.93%.

Regarding `CC(C)=N/N=C(\N)N[N+](=O)[O-]`, the inhibition is inactive: 1.52%.

Regarding `CC(C)c1nc(Nc2ccccc2)n(P(=O)(N(C)C)N(C)C)n1`, the inhibition is inactive: -1.82%.

`CN(C)C(=O)OCCc1n(C)cc[n+]1C`: the inhibition is inactive: -0.22%.
